Pooled drug test results. Numbers come from NIAID ChemDB, via PubChem.

Common to all: whole-cell or culture tests; organism: Rhinovirus; endpoint: inhibition

Inhibition is in % at the dose shown (toxicity tests: loss of growth or viability). a–b is a range or a potency band. Blank or dashed fields: not listed here. Conditions beyond the fields shown may differ between rows.

SMILES | tested at | read by | strain or isolate | cells | value
N#Cc1cc([N+](=O)[O-])ccc1Oc1ccc(Cl)c(Cl)c1 | 0.06 µg/mL | plaque count | HANK | VERO | 2.63%
Nc1c(S(=O)(=O)O)cc2cc(S(=O)(=O)O)cc(O)c2c1O | 50 µg/mL | cytopathic effect |  | Human embryonic lung cells | 33%
O=C(O)Cc1csc(/N=C2\SC[C@@H]3Cc4ccccc4CN23)n1 | 125 µg/mL | cytopathic effect | Serotype 26 | MRC-5 | 80–100%
CCOc1cc(O)c(C(=O)/C=C/c2ccc(OC)cc2)c(OC)c1 | 0.145 µg/mL |  | 100 serotypes |  | 53%
O=C(Nc1ccc2cc(S(=O)(=O)[O-])cc(S(=O)(=O)[O-])c2c1)c1ccccc1 | 10 µg/mL | cytopathic effect |  | Human embryonic lung cells | 50%
COc1ccc(N2CCN(c3cccc(C)c3)CC2)nn1 | 0.074 µg/mL |  | 100 serotypes |  | 18%
CN(C)c1nc(C(F)(F)F)nc2c1ncn2Cc1ccc(Cl)c(N)c1 | 8 µM | plaque count | Serotype 19 | M-HELA | 40%
CCCCCCCCCCCCCCOc1ccc(C(C)=O)o1 | 2 µg/mL |  | 100 serotypes |  | 71%
Nc1cccc(S(=O)(=O)O)c1 | 10 µg/mL | cytopathic effect |  | Human embryonic lung cells | 0%
Cc1cc(Cn2cnc3c(N(C)C)nc(C(F)(F)F)nc32)ccc1Cl | 8 µM | plaque count | Serotype 13 | M-HELA | 13%
CS(=O)(=O)c1ccc2c(c1)CCC(c1ccc(Cl)c(Cl)c1)O2 | 1.05 µg/mL |  | 17 serotypes |  | 53%
CN(C)c1nc(C(F)(F)F)nc2c1ncn2Cc1ccc([N+](=O)[O-])cc1 | 8 µM | plaque count | Serotype 31 | M-HELA | 37%
Nc1ccc2c(O)cc(S(=O)(=O)[O-])cc2c1S(=O)(=O)[O-] | 10 µg/mL | cytopathic effect |  | Human embryonic lung cells | 70%
Cc1cccc(N2CCN(c3ccc(Br)nn3)CC2)c1 | 1.5 µg/mL |  | 17 serotypes |  | 53%
CN(C)c1nc(C(F)(F)F)nc2c1ncn2Cc1ccc(S(C)(=O)=O)cc1 | 8 µM | plaque count | Serotype 8 | M-HELA | 36%
Cc1cccc(C2=CCN(c3ccc(Cl)nn3)CC2)c1 | 0.016 µg/mL |  | 100 serotypes |  | 18%
O=S(=O)([O-])c1ccc2c(NS(=O)(=O)c3ccccc3)cc(S(=O)(=O)[O-])cc2c1 | 50 µg/mL | cytopathic effect |  | Human embryonic lung cells | 33%
CN(C)c1nc(C(F)(F)F)nc2c1ncn2Cc1ccccc1 | 8 µM | plaque count | Serotype 30 | M-HELA | 19%

Repeating the first 2 entries:

| SMILES | tested at | read by | strain or isolate | cells | value |
|---|---|---|---|---|---|
| N#Cc1cc([N+](=O)[O-])ccc1Oc1ccc(Cl)c(Cl)c1 | 0.06 µg/mL | plaque count | HANK | VERO | 2.63% |
| Nc1c(S(=O)(=O)O)cc2cc(S(=O)(=O)O)cc(O)c2c1O | 50 µg/mL | cytopathic effect |  | Human embryonic lung cells | 33% |